In PubChem BioAssay AID1251 (SRMLSC, 2008) one finds inhibition data, which are given here for 25 compounds.

The entries are a selection whose mix differs from that of the whole data set. Activity calls are given as the source filed them. Rule as the data show it: active = inhibition above about 30%; inactive = the rest, inconclusive results apart.

In general, inhibition refers to the relative decrease from the control value, in per cent.

A short description of the assay: inhibitors of arbovirus infection in cells – cell-based, full library, 10K replicate subset, primary screen (AID 1251). To be noted: arbovirus infection cell-based antiviral screen; at 10 µM; hits give high values.
With `O=C(NCC1(N2CCOCC2)CCCCC1)c1cc(=O)[nH]c2ccccc12`, the inhibition was inactive: 6.42%.

Regarding `CN1CCN(CCOC(=O)C(O)(c2ccccc2)c2ccccc2)CC1`, the inhibition was inactive: 2.68%.

Turning to `COc1ccc(NC2CCN(C(=O)OC(C)(C)C)CC2)cc1`, the inhibition is inactive: 0.72%. The value for `N#CC1(Nc2ccccc2)CCN(CCc2ccccc2)CC1` was inactive: 3.48%.

On to `O=C(NCC1(N2CCCCC2)CCCCC1)c1cccc([N+](=O)[O-])c1`, for which the inhibition was inactive: 4.7%. For `CC(C)c1ccc(NC2CCN(C(=O)OC(C)(C)C)CC2)cc1` the value was inactive: 22.8%; for `CN(C)c1cccc(C(=O)NCC2(N3CCCCC3)CCCCC2)c1`, inactive: 8.06%. With `COc1ccc(CN(CCCl)CCCl)cc1Cl`, the inhibition is inactive: -0.34%.

As for `O=C(NCC1(N2CCOCC2)CCCCC1)c1cc2ccccc2o1`, the inhibition was inactive: -2.15%. As to `O=C(OC1CN2CCC1CC2)C1c2ccccc2Oc2ccccc21` (stereo not given), the inhibition is inactive: 3.15%.

`CCOC(=O)N1CCC(Nc2ccc(OC)cc2)CC1`: the inhibition is inactive: 2.16%.

In the case of `COc1ccc(C(=O)NCC2(N3CCCCC3)CCCCC2)c(OC)c1OC`, the inhibition was inactive: -0.48%.

`COc1ccc(NC2CCN(CCc3ccccc3)CC2)c(OC)c1`: the inhibition is inactive: -10.1%. The value for `CCN1CCC(Nc2cccc(F)c2)CC1` was inactive: -6.04%; that for `CN(C)c1ccc(C(=O)NCC2(N3CCCCC3)CCCCC2)cc1` was inactive: -2.69%; that for `Fc1ccccc1NC1CCN(Cc2ccccc2)CC1` was inactive: -3.97%. The value for `COc1cc(OC)cc(C(=O)NCC2(N3CCOCC3)CCCCC2)c1` was inactive: 1.83%; that for `CCC(CO)(C(=O)OC1CN2CCC1CC2)c1ccccc1` (stereo not given) was inactive: 6.56%. The value for `CCOc1ncccc1C(=O)NCC1(N2CCOCC2)CCCCC1` was inactive: 8.67%.

As to `CC(C)(C)OC(=O)N1CCC(Nc2ccccc2)CC1`, the inhibition is inactive: 0.43%. For `N/C(=N\O)c1c(N)no[n+]1[O-]`, the inhibition was inactive: 1.78%.

Turning to `O=C(OC1CN2CCC1CC2)C1c2ccccc2C=Cc2ccccc21` (stereo not given), the inhibition was inactive: -22.6%.

With `COc1ccc(C(=O)NCC2(N3CCOCC3)CCCCC2)cc1OC`, the inhibition is inactive: 6.12%.

As for `c1ccc(CN2CCC(Nc3ccccc3)CC2)cc1`, the inhibition was inactive: -8.73%. In the case of `N#Cc1ccc(C(=O)NCC2(N3CCCCC3)CCCCC2)cc1`, the inhibition is inactive: 3.33%.
